# Source: publication PMC11370232, “Repurposing of a library for high-content screening of inhibitors against Echinococcus granulosus” (Parasites & Vectors, 2024)
# Tested on: E. granulosus PSCs
Molecule,mortality (0.5 µM),mortality (2 µM),mortality (10 µM),mortality (50 µM),also measured
CC(=O)[O][Hg][c]1cc(C(C)(C)CC(C)(C)C)ccc1O [ACETOMEROCTOL],0%,0%,70%,100%,–
CC(=O)OC[C@H]1O[C@@H]([S-])[C@H](OC(C)=O)[C@@H](OC(C)=O)[C@@H]1OC(C)=O.CCP(CC)CC.[Au+] [Auranofin],0%,0%,100%,100%,–
C1C[S][Bi-]2([S]1)[S]CC[S]2 [Bismuth ethanedithiol],0%,0%,100%,100%,–
Elaiophylin,–,–,–,–,"Anti-echinicoccus activity, Dose confirmaiton 0.5uM: 0; Anti-echinicoccus activity, Dose confirmaiton 2uM: 0; Anti-echinicoccus activity, Dose confirmaiton 10uM: 100; Anti-echinicoccus activity, Dose confirmaiton 50uM: 100; Anti-echinicoccus activity, Initiate hits 50uM: 100"
MI-2 [MI-2 (MALT1 inhibitor)],–,–,–,–,"Anti-echinicoccus activity, Initiate hits 50uM (primary screen, 50 μM, PSCs, 3-day incubation, PI staining (death rate of PSCs)): 100; Anti-echinicoccus activity, Dose confirmaiton 0.5uM (second-stage dose-response, 0.5 μM, PSCs): 0; Anti-echinicoccus activity, Dose confirmaiton 2uM (second-stage dose-response, 2 μM, PSCs): 0; Anti-echinicoccus activity, Dose confirmaiton 10uM (second-stage dose-response, 10 μM, PSCs): 100; Anti-echinicoccus activity, Dose confirmaiton 50uM (second-stage dose-response, 50 μM, PSCs): 100"
incyclinide,0%,0%,0%,100%,–
ispinesib mesylate,0%,0%,0%,100%,–

# Where two headings read alike, the source gives them in different places.
